Measured values from several laboratories, pooled; numbers as filed in NIAID ChemDB.

Common to all: cytotoxicity tests; cell line: Huh7.5; read-out: CC50

CCn is the concentration with n% toxicity to the cells. Lines come from different laboratories, so protocols vary. Blank or dashed fields: not listed here.

structure | read by | result
COC(=O)C1=C(C(=O)OC)C2N(C)c3ccc(OC)cc3[C@@]23C[C@@H](C(=O)OC)N(C(=O)CC(C)C)C3=N1 | XTT | >320 µM
C/C(=C\c1cn(C)c2ccccc12)C(=O)Nc1ccc(C(C)(C)C)cc1 | MTT | 19.3 µM
O=c1[nH]cnc2c1sc(=S)n2Cc1ccccc1 | MTS | >224 µM
C/C(=C\c1cn(C(=O)OCc2ccccc2)c2ccc(C#N)cc12)C(=O)Nc1ccc(C(C)(C)C)cc1 | MTT | 21.8 µM
CN(C)CC1CNc2nc3ccc4c(c3n2C1)CC(CN(C)C)O4 |  | 65 µM
C[C@@H]1CCCCC1OCCCCCCN1C[C@H](O)[C@@H](O)[C@H](O)[C@H]1CO | MTT | >500 µM
CC(=O)c1ccc(NC(=O)C2=c3nc(C)[nH]c(=O)c3=NC2)cc1 | MTS | >224 µM
CC1=C(/C=C/C(C)=C/C=C/C(C)=C\C(=O)O)C(C)(C)CCC1 | WST | >100 µM
C[C@H]1O[C@@H](O[C@H]2CC[C@@]3(C)C(CC[C@]4(C)C3C=CC3=C5CC(C)(C)CC[C@]5(CO)[C@H](O)C[C@]34C)[C@]2(C)CO)[C@H](O)[C@@H](O[C@@H]2O[C@H](CO)[C@@H](O)[C@H](O)[C@@H]2O)[C@@H]1O | XTT | 740.4 µM
COC(=O)C1=C(C(=O)OC)C2N(CCCCCNC(=O)CCCCCNC(=O)CCCC3SCC4NC(=O)NC43)c3ccccc3[C@@]23CC(=O)N(Cc2ccccc2)C3=N1 | XTT | >40 µM
CCOC(=O)c1c(C)n(C)c2ccc(CN3CCCC3)cc12 | resazurin | >50 µM
COc1ccc2c(c1)c(/C=C(\C)C(=O)Nc1ccc(C(C)(C)C)cc1)cn2CCN(C)C | MTT | >100 µM
CCOc1ccc2nc(NC(=O)Nc3cccc(OC)c3)sc2c1 | MTT | >100 µM
c1ncc(CNc2ccc3ncsc3c2)cn1 | MTT | >200 µM
CC1=C(/C=C/C(C)=C\C=C\C(C)=C\C(=O)O)C(C)(C)CCC1 | WST | >100 µM
O=c1[nH]cnc2c1cnn2Cc1ccccc1 | MTS | 96 µM
C/C(=C\c1cn(C(=O)OCc2ccccc2)c2ccccc12)C(=O)Nc1ccc(C(C)(C)C)cc1 | MTT | 63.7 µM
Nc1nc2c(cnn2[C@H](C=O)O[C@@H](C=O)CO)c(=O)[nH]1 | MTS | >224 µM
O=c1c2cc(F)c(Br)cc2sn1-c1ccccc1 | ATP | 12 µM
O=[N+]([O-])c1ccc(CNc2ccc3ncoc3c2)cc1 | MTT | >200 µM
CCOC(=O)c1c(C)n(C)c2ccc(CN(C)C)cc12 | resazurin | >50 µM
CC(C)=CCc1c(O)cc2oc3cc(O)c(O)c(CC=C(C)C)c3c(=O)c2c1O | MTT | 8.2 µM
CCCCN1C[C@H](O)[C@@H](O)[C@H](O)[C@H]1CO | MTT | >500 µM
Clc1ccc(Cn2c(CN3CCCC3)nc3ccccc32)cc1 | MTT | 36.4 µM
C/C(=C\c1cn(CCN(C)C)c2ccc(C#N)cc12)C(=O)Nc1ccc(C(C)(C)C)cc1 | MTT | 2.1 µM
C=Cc1c2[nH]c(c1C)/C=C1\N=C(CC3=C4N=C(/C=c5\[nH]/c(c(C)c5CC)=C\2)C(C)=C4C(=O)[C@@H]3C(=O)OC)[C@@H](CCC(=O)O)[C@@H]1C | WST | 10 µg/mL
O=C(OC[C@H]1O[C@@H](OC(=O)c2cc(O)c(O)c(OC(=O)c3cc(O)c(O)c(O)c3)c2)[C@H](OC(=O)c2cc(O)c(O)c(OC(=O)c3cc(O)c(O)c(O)c3)c2)[C@@H](OC(=O)c2cc(O)c(O)c(OC(=O)c3cc(O)c(O)c(O)c3)c2)[C@@H]1OC(=O)c1cc(O)c(O)c(OC(=O)c2cc(O)c(O)c(O)c2)c1)c1cc(O)c(O)c(OC(=O)c2cc(O)c(O)c(O)c2)c1 | MTS | 146.1 µM
COc1ccc2c(c1)c(/C=C(\C)C(=O)Nc1ccc(C(C)(C)C)cc1)cn2C(=O)c1ccccc1 | MTT | >100 µM

For reference, 3 entries again:

{"structure": "CN(C)CC1CNc2nc3ccc4c(c3n2C1)CC(CN(C)C)O4", "result": "65 µM"}
{"structure": "c1ncc(CNc2ccc3ncsc3c2)cn1", "read by": "MTT", "result": ">200 µM"}
{"structure": "CC1=C(/C=C/C(C)=C/C=C/C(C)=C\\C(=O)O)C(C)(C)CCC1", "read by": "WST", "result": ">100 µM"}